Anti-infective test results gathered from many reports (values: NIAID ChemDB through PubChem).

Common to all: growth or infection tests; agent: Aspergillus fumigatus; method: broth dilution; measure: MIC

Conditions beyond the fields shown may differ between rows. An empty or dashed field is not shown.

| smiles | strain or isolate | value |
|---|---|---|
| Cc1ccc2nc(C(C#N)Cc3cc4ccccc4nc3N3CCOCC3)[nH]c2c1 | MTCC 3008 | 500 µg/mL |
| Cc1ccc2nc(Sc3ccc(Cl)cc3)c(C3C(C#N)=C(N)Oc4cc(C)oc(=O)c43)cc2c1 | MTCC 3008 | 1000 µg/mL |
| CCOC(=O)C1=C(N)N(c2nc(-c3ccccc3O)cs2)C2=C(C(=O)CCC2)C1c1cc2ccccc2nc1F | MTCC 3008 | 500 µg/mL |
| COc1ccc2nc(N3CCOCC3)c(/C=C(/C#N)c3nc4ccccc4[nH]3)cc2c1 | MTCC 3008 | 1000 µg/mL |
| CC1C(N=Nc2ccccc2)SC(=Nc2ccccc2)N1CCN1C(=Nc2ccccc2)SC(N=Nc2ccccc2)C1C | - | 31.25 µg/mL |
| COc1ccc(CN=C=S)cc1 | - | 1 µg/mL |
| c1ccc(N=C2SCC(c3ccccc3)N2CCN2C(=Nc3ccccc3)SCC2c2ccccc2)cc1 | - | 7.8 µg/mL |
| Cc1ccc2nc(Sc3ccccc3)c(C3C(C#N)=C(N)Oc4cc(C)oc(=O)c43)cc2c1 | MTCC 3008 | 200 µg/mL |
| N#CC1=C(N)N(c2nc(-c3ccc(Cl)cc3)cs2)C2=C(C(=O)CCC2)C1c1cc2ccccc2nc1F | MTCC 3008 | 500 µg/mL |
| C=CCc1ccc(O)c(OC)c1 | MTCC 2550 | 320 µg/mL |
| ClCCN1CCN(C(c2ccccc2)c2ccc(Cl)cc2)CC1 | ATCC 96918 | 200 µg/mL |
| Cc1ccc2nc(/C(C#N)=C\c3cc4ccccc4nc3N3CCOCC3)[nH]c2c1 | MTCC 3008 | >1000 µg/mL |
| O=C(CN1CCN(C(c2ccccc2)c2ccc(Cl)cc2)CC1)Cn1ccnc1-c1ccccc1 | ATCC 96918 | 25 µg/mL |
| Cc1ccc2oc(=O)c3c(c2c1)OC(N)=C(C#N)C3c1cc2ccccc2nc1Sc1ccccc1 | MTCC 3008 | 1000 µg/mL |
| CCOC(=O)C1=C(N)N(c2nc(-c3ccc(Cl)cc3)cs2)C2=C(C(=O)CCC2)C1c1cc2ccccc2nc1F | MTCC 3008 | 200 µg/mL |
| COc1ccc(CSC#N)cc1 | - | 150 µg/mL |
| Cc1cc2c(c(=O)o1)C(c1cc3ccccc3nc1Sc1ccccc1)C(C#N)=C(N)O2 | MTCC 3008 | 1000 µg/mL |
| C[C@H]1[C@H](O)[C@@H](C)/C=C/C=C/C=C/C=C/C=C/C=C/C=C/[C@H](O[C@@H]2O[C@H](C)[C@@H](O)[C@H](N)[C@@H]2O)C[C@@H]2O[C@](O)(C[C@@H](O)C[C@@H](O)CC[C@H](O)[C@@H](O)C[C@@H](O)CC(=O)O[C@H]1C)C[C@H](O)[C@H]2C(=O)O | VPCI 190/96 | 1.95 µg/mL |
| OC(CN1CCN(C(c2ccccc2)c2ccc(Cl)cc2)CC1)Cn1cncn1 | ATCC 96918 | 200 µg/mL |
| Cc1ccc2nc(N3CCOCC3)c(/C=C(/C#N)c3nc4ccc(C)cc4[nH]3)cc2c1 | MTCC 3008 | 500 µg/mL |
| COc1cccc(CSC#N)c1 | - | 300 µg/mL |
| CCOC(=O)C1=C(N)N(c2nc(-c3ccccc3)cs2)C2=C(C(=O)CCC2)C1c1cc2ccccc2nc1F | MTCC 3008 | 250 µg/mL |
| O=C(Cn1cnc2ccccc21)N1CCN(C(c2ccccc2)c2ccc(Cl)cc2)CC1 | ATCC 96918 | 100 µg/mL |
| CCOC(=O)C1=C(N)N(c2nc(-c3ccccc3O)cs2)C2=C(C(=O)CCC2)C1c1cc2cc(C)ccc2nc1F | MTCC 3008 | >1000 µg/mL |
| Cc1cc2ncn(CC(=O)N3CCN(C(c4ccccc4)c4ccc(Cl)cc4)CC3)c2cc1C | ATCC 96918 | 100 µg/mL |
| Cc1ccc2nc(F)c(C3C(C#N)=C(N)N(c4nc(-c5ccc(O)cc5)cs4)C4=C3C(=O)CCC4)cc2c1 | MTCC 3008 | >1000 µg/mL |
| Cc1nc([N+](=O)[O-])cn1CC(=O)CN1CCN(C(c2ccccc2)c2ccc(Cl)cc2)CC1 | ATCC 96918 | 100 µg/mL |
| CCOC(=O)C1=C(N)N(c2nc(-c3ccc(Cl)cc3)cs2)C2=C(C(=O)CCC2)C1c1cc2cc(OC)ccc2nc1F | MTCC 3008 | >1000 µg/mL |
| COc1ccccc1CN=C=S | - | 70 µg/mL |
| O=C/C=C/c1ccccc1 | MTCC 2550 | 80 µg/mL |
| Cc1ccc2nc(F)c(C3C(C#N)=C(N)N(c4nc(-c5ccc(Cl)cc5)cs4)C4=C3C(=O)CCC4)cc2c1 | MTCC 3008 | 1000 µg/mL |

For reference, 3 entries again:

O=C(Cn1cnc2ccccc21)N1CCN(C(c2ccccc2)c2ccc(Cl)cc2)CC1 ; strain or isolate: ATCC 96918 ; value: 100 µg/mL
Cc1ccc2nc(C(C#N)Cc3cc4ccccc4nc3N3CCOCC3)[nH]c2c1 ; strain or isolate: MTCC 3008 ; value: 500 µg/mL
C=CCc1ccc(O)c(OC)c1 ; strain or isolate: MTCC 2550 ; value: 320 µg/mL